Measured values reported in patent US5672586A (Bio-Mega/Boehringer Ingelheim Research, Inc., priority 1995, dated 1997).

Experiment: general procedure: solution-phase peptide synthesis

(3-Cyclohexyl-2(R)-methyl-1-oxopropyl)-(N--Me) Val-Tbg-CH2 --(R)--CH(CH2 C(O)CMe3)--C (O)-Asp(cyPn)-NH--(R)--CH(Et)CMe3
step yield (late stage modification step): 97%

Boc-(N-Me) Val-Tbg-CH2 --(R)--CH(CH2 C(O)CMe3)C(O)-Asp(cyPn)-(Bzl)--NH--(R)--CH (Et)CMe3
step yield (coupling step): 89%
